PSTVd loop 6 mutant pool in Nicotiana benthamiana

Data from the supplement of Wu et al. 2024, doi:10.1371/journal.ppat.1012142.

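Three N. benthamiana plants were inoculated with the whole mutant pool. Samples came from the inoculated region at 5 days, the leaf margin at 10 and upper systemic leaves at 12.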

The pool varies loop 6 of the PSTVd intermediate strain in the pattern UNNNCGNNNG; wild type is UGACCGCGAG (upper and lower strand joined, each 5' to 3', the first 5 letters being the upper strand, closing pairs included).

Numbers give reads per thousand; 0 = not seen among the reads, higher = more abundant. Each site shows the three plants. "Pool" is the share in the plasmid pool used as inoculum, on the same scale. The inoculated region was read from the minus strand, the other sites from the plus strand. IR is the inoculated region, LM the leaf margin, Sys the systemic leaves.

With UGUUCGUGGG (pool 0.131) the assay gave IR 0.122 / 0.0898 / 0.0369; LM 0 / 0 / 0.0232; Sys 0 / 0 / 0.
With UAGGCGAGGG (pool 0.170) the assay gave IR 0.122 / 0.0898 / 0.0369; LM 0 / 0 / 0; Sys 0 / 0 / 0.
With UACACGAACG (pool 0.118) the assay gave IR 0.573 / 0.629 / 0.461; LM 0.0552 / 0.126 / 0.0232; Sys 0 / 0 / 0.
With UCACCGGCGG (pool 0.170) the assay gave IR 0.191 / 0.108 / 0.111; LM 0 / 0 / 0.0232; Sys 0 / 0 / 0.
With UCGUCGAAGG (pool 0.183) the assay gave IR 0.0695 / 0.0719 / 0.0553; LM 0 / 0 / 0; Sys 0 / 0 / 0.
With UUCCCGGUCG (pool 0.209) the assay gave IR 0.104 / 0.0898 / 0.0369; LM 0 / 0 / 0; Sys 0 / 0 / 0.
With UACACGGAUG (pool 0.222) the assay gave IR 0.0695 / 0.0539 / 0.0553; LM 0.0276 / 0 / 0; Sys 0 / 0 / 0.
With UAGACGGUAG (pool 0.222) the assay gave IR 0.0869 / 0.0359 / 0.0553; LM 0 / 0 / 0.0464; Sys 0 / 0 / 0.
With UCUACGGGUG (pool 0.170) the assay gave IR 0.0869 / 0.0180 / 0.0369; LM 0.138 / 0 / 0; Sys 0 / 0 / 0.
With UUGGCGGUCG (pool 0.327) the assay gave IR 0.0869 / 0.0539 / 0.0553; LM 0.0276 / 0 / 0; Sys 0 / 0 / 0.0205.
With UAGCCGGUCG (pool 0.209) the assay gave IR 0.0869 / 0.144 / 0.129; LM 0.138 / 0.0504 / 0.0232; Sys 0 / 0 / 0.0205.
With UCCUCGUCAG (pool 0.248) the assay gave IR 0.0174 / 0.0898 / 0.0738; LM 0.0552 / 0 / 0; Sys 0 / 0 / 0.
With UUGCCGGUGA (pool 0.0131) the assay gave IR 0 / 0 / 0; LM 0 / 0 / 0; Sys 0 / 0 / 0.
With UUUCGGCUAG (pool 0.0131) the assay gave IR 0 / 0 / 0; LM 0 / 0 / 0; Sys 0 / 0 / 0.
With UUGUAGGGCG (pool 0.0131) the assay gave IR 0 / 0 / 0; LM 0 / 0 / 0; Sys 0 / 0 / 0.
With UGUCCGAGAG (pool 0.222) the assay gave IR 0.869 / 0.413 / 0.479; LM 0.0828 / 0.126 / 0.0232; Sys 0 / 0 / 0.
With UGUGCGUCUG (pool 0.353) the assay gave IR 0.0869 / 0.0719 / 0.0553; LM 0 / 0 / 0; Sys 0 / 0 / 0.
With UAAGCGCGGG (pool 0.209) the assay gave IR 0.156 / 0.198 / 0.0553; LM 0 / 0 / 0; Sys 0 / 0 / 0.
With UAAGCGGGCG (pool 0.288) the assay gave IR 0.695 / 0.790 / 0.350; LM 0.110 / 0.0504 / 0.186; Sys 0.0180 / 0 / 0.
With UCCGCGAGGG (pool 0.170) the assay gave IR 0.0695 / 0.0719 / 0.0922; LM 0 / 0 / 0; Sys 0 / 0 / 0.
With UAUACGUGUG (pool 0.314) the assay gave IR 0.0521 / 0.0898 / 0.0738; LM 0 / 0 / 0.0464; Sys 0 / 0 / 0.0205.

Extract of 2 entries:

sequence	pool	IR	LM	Sys
UAGCCGGUCG	0.209	0.0869 / 0.144 / 0.129	0.138 / 0.0504 / 0.0232	0 / 0 / 0.0205
UAAGCGGGCG	0.288	0.695 / 0.790 / 0.350	0.110 / 0.0504 / 0.186	0.0180 / 0 / 0

With 36,220-57,551 reads a sample, very low values are single reads. For reference, wild type rose from 20.7 per thousand in the pool to 195, 198, 203 (inoculated region), 629, 591, 734 (leaf margin) and 942, 870, 868 (systemic leaves). The authors trace changes outside the varied positions to PCR and sequencing errors or to mutation in the plant; presence does not show that a variant is infectious alone.